Measured values published in paper PMC8669466.

Experiments:
H-NS [1] = molecular target: T1, H-NS (UniProt P0ACF8); test: DNase I footprinting; conditions: 3.4 uM H-NS, 0.2 mM CaCl2, 2.5 mM MgCl2; recombinant protein; label: 5'-FAM on forward primer; probe letters rebuilt from the primers and the genome
T1 sequence (looked up, limits assumed): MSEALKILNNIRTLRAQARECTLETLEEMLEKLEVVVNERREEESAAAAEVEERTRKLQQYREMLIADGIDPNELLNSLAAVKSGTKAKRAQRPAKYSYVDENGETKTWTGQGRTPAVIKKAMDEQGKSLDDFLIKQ

H-NS [2] = molecular target: T1, H-NS; test: EMSA; conditions: H-NS 0-200 nM, DNA 1 nM; EMSA: 20 mM Tris-HCl pH 7.5, 80 mM NaCl, 0.1 mM EDTA, 1 mM DTT, 10% glycerol, 37 C, 30 min; footprinting in EMSA buffer + 0.2 mM CaCl2, 2.5 mM MgCl2, DNase I at 25 C; recombinant protein; probe letters rebuilt from the primers and the genome

Row | Sequence | binding result (H-NS [1]) | binding result (H-NS [2])
1 | TCTCTCCAGGGGCATTTGAAAAAATTGGGCCGATTATTCGCGCAACGCTAAACAGATAAATTAACATTATCTATAACCCCATAATTGCAGGAAATAATTATGGGTTTATCATTTATTTAATTTATAAGTTTGCTGGTTATTTTTCTTAAATAGAGTGAATGTTGCATTCAGTGGAATGAATTTACAAACTTCAGCTTCGGATAATTCTCACCAACTGGTAAAGTGAGCGCCGTGGAGATTTCCCCCTATTGGACTCATTTTCAGGTTATACCCCATGTCATCACTGAATATTAAACAGGGAAGTGACGCTCATTTTCCCGATTATCCTCTGGCGTCGCCCAGTAATAATGAAATTGATTTACTTAATCTAATCTCAGTTTTATGGCGGGCCAAAAAAACGGTCATGGCGGTCGTTTTTGCGTTTGCC (double strand) [fepE promoter PCR fragment, FAM-labelled] | binds | 
2 | TCTCTCCAGGGGCATTTGAAAAAATTGGGCCGATTATTCGCGCAACGCTAAACAGATAAATTAACATTATCTATAACCCCATAATTGCAGGAAATAATTATGGGTTTATCATTTATTTAATTTATAAGTTTGCTGGTTATTTTTCTTAAATAGAGTGAATGTTGCATTCAGTGGAATGAATTTACAAACTTCAGCTTCGGATAATTCTCACCAACTGGTAAAGTGAGCGCCGTGGAGATTTCCCCCTATTGGACTCATTTTCAGGTTATACCCCATGTCATCACTGAATATTAAACAGGGAAGTGACGCTCATTTTCCCGATTATCCTCTGGCGTCGCCCAGTAATAATGAAATTGATTTACTTAATCTAATCTCAGTTTTATGGCGGGCCAAAAAAACGGTCATGGCGGTCGTTTTTGCGTTTGCC (double strand) [fepE promoter PCR fragment] |  | binds

Construct, isoform or probe ends are uncertain for at least one entry. Where a protein sequence is shown, tags need not be part of it.
